Anti-infective test results gathered from many reports (values: NIAID ChemDB through PubChem).

Common to all: growth or infection tests; organism: HIV-1

a–b is a range or a potency band. Conditions beyond the fields shown may differ between rows. ECn is the concentration giving n% inhibition of infection, replication or growth. Blank or dashed fields: not listed here.

SMILES | setting | cell line | method | endpoint | mutations | strain | value
CCN1c2ncc(CCOc3ccc(C4CC4C(=O)O)c4ccccc34)cc2C(=O)N(C)c2ccc(F)nc21 |  | C8166 | p24 | EC50 |  | WT | <0.1 µM
COc1ccc(N(C)C(=O)[C@H](Cc2ccccc2)NC(=O)Cn2c(=O)n(CC(=O)N[C@@H](Cc3ccccc3)C(=O)N(C)c3ccc(OC)cc3)c3cc(F)ccc32)cc1 |  | MT-2 | luciferase | EC50 |  | NL4-3 | 0.08 µM
CCN1c2ncc(CCOc3ccc(C(=O)O)c4c3CCCC4)cc2C(=O)N(C)c2ccc(F)nc21 |  | C8166 | p24 | EC50 |  | WT | <0.1 µM
CC(C)C1=C2C3CCC4[C@@]5(C)CC[C@H](OC(=O)CC(C)(C)C(=O)O)C(C)(C)C5CC[C@@]4(C)[C@]3(C)CC[C@@]2(NC(=O)c2nnc(C3CC3)o2)CC1=O | 30% human serum | MT-2 | RT activity | EC50 |  | IIIB | <0.199 µM
CCc1ccc(-c2c(C(OC(C)C)C(=O)O)c(C)nc3ccc(Cl)cc23)cc1 |  | C8166 | luciferase / reporter gene | EC50 |  |  | <20 µM
CN(C)C1COCCn2c1nc(C(=O)NCc1ccc(F)cc1)c(O)c2=O |  | MT-4 | p24 | EC95 |  |  | <50 µM
Cc1ccc(-c2c(C(OC(C)C)C(=O)O)c(C)nc3ccc(Cl)cc23)cc1 |  | C8166 | luciferase / reporter gene | EC50 |  |  | <20 µM
CCN1c2ncc(CCOc3ccc(C(=O)O)c4c3CCC4)cc2C(=O)N(C)c2cccnc21 |  | C8166 | p24 | EC50 | RT-K103N Y181C |  | <0.1 µM
C[C@H]1[C@H](O)[C@@H](C)/C=C/C=C/C=C/C=C/C=C/C=C/C=C/[C@H](O[C@@H]2O[C@H](C)[C@@H](O)[C@H](N)[C@@H]2O)C[C@@H]2O[C@](O)(C[C@@H](O)C[C@@H](O)CC[C@H](O)[C@@H](O)C[C@@H](O)CC(=O)O[C@H]1C)C[C@H](O)[C@H]2C(=O)O |  | PBMC | p24 / RT activity | EC50 |  | 92TH026 CLADE B R5 (NSI) | 3.7 µM
CCCOC(=O)c1cc(NC(=S)OC(C)C)ccc1Cl |  | CEM | syncytia | EC50 | RT-Y181C |  | 5.699 µM
CC(C)C1=C2C3CCC4[C@@]5(C)CC[C@H](OC(=O)CC(C)(C)C(=O)O)C(C)(C)C5CC[C@@]4(C)[C@]3(C)CC[C@@]2(NC(=O)OC2CCS(=O)(=O)CC2)CC1=O | 30% human serum | MT-2 | RT activity | EC50 |  | IIIB | <0.199 µM
Nc1nc(NC2CC2)c2ncn([C@H]3C=C[C@@H](CO)C3)c2n1 |  | MT-2 | recombinant virus assay | EC50 | M41L/D67N/K70R/K103N/L210W/T215F/K219Q | Clinical isolate | 0.4136 µM
Cc1nc2ccc(Cl)cc2c(-c2ccc(C(C)C)cc2)c1C(OC(C)C)C(=O)O |  | C8166 | luciferase / reporter gene | EC50 |  |  | <20 µM
O=C(NCc1ccc(F)cc1)c1nc2n(c(=O)c1O)CCN(Cc1ccccc1)CC2 |  | MT-4 | p24 | EC95 |  |  | <50 µM
CC(C)C1=C2[C@H]3CC[C@@H]4[C@@]5(C)CC[C@H](OC(=O)[C@H]6C[C@@H](C(=O)O)C6(C)C)C(C)(C)[C@@H]5CC[C@@]4(C)[C@]3(C)CC[C@@]2(CC(=O)NCc2cnn3cccnc23)CC1=O |  | MT-2 | p24 / ELISA | EC50 |  | 92HT599 | <1 µM
Cc1cc(C#N)cc(C)c1Oc1nc(NC2CCC(NCc3ccc(S(C)(=O)=O)cc3)CC2)nc2ccsc12 |  | MT-4 | MTT | EC50 | NNRTI-resistant (RT L100I) | IIIB | ≥197 µM
Cc1noc(C)c1C(=O)NC[C@H](O)[C@@]12CC[C@]3(C)[C@H](CC[C@@H]4[C@@]5(C)CC[C@H](OC(=O)[C@H]6C[C@@H](C(=O)O)C6(C)C)C(C)(C)[C@@H]5CC[C@]43C)C1=C(C(C)C)C(=O)C2 |  | MT-2 | p24 / ELISA | EC50 |  | 92HT599 | <1 µM
Cn1nnnc1CN1CCn2c(nc(C(=O)NCc3ccc(F)cc3)c(O)c2=O)C1(C)C |  | MT-4 | p24 | EC50 |  |  | <1 µM
CN(C(=O)[C@H](Cc1cc(F)cc(F)c1)NC(=O)c1cccc(C(=O)N[C@@H](Cc2cc(F)cc(F)c2)C(=O)N(C)c2ccc3scnc3c2)c1Cl)c1ccc2scnc2c1 |  | MT-2 | luciferase | EC50 |  | NL4-3 | 0.07 µM
CCCC(C(=O)O)c1c(C)nc2ccc(Cl)cc2c1-c1ccc(Br)cc1 |  | C8166 | luciferase / reporter gene | EC50 |  |  | <20 µM
[2H]C(CNCC[C@@]12CC[C@]3(C)[C@H](CC[C@@H]4[C@@]5(C)CC[C@H](OC(=O)[C@H]6C[C@@H](C(=O)O)C6(C)C)C(C)(C)[C@@H]5CC[C@]43C)C1=C(C(C)C)C(=O)C2)NC(=O)c1ccc(Cl)cc1 |  | MT-2 | p24 / ELISA | EC50 |  | 92HT599 | <1 µM
CCC(=O)c1ccc(F)c([C@@H]2C[C@@H]2NC(=O)Nc2ccc(C#N)cn2)c1O |  | TZM-bl | β-galactosidase / luminescence | EC50 | NNRTI-resistant (RT K103S) | LAI | 0.0153 µM
COc1ccnc2[nH]cc(C(=O)C(=O)N3C4CCCC3CN(C(=O)c3ccccc3)C4)c12 |  | TZM-bl | luciferase | EC50 |  | QH0692 | 1.9 µM
CCN1c2ncc(CCOc3ccc(/C=C(\C)C(=O)O)c4ccccc34)cc2C(=O)Nc2c(C)cc(Cl)nc21 |  | C8166 | p24 | EC50 | RT-K103N Y181C |  | 0.1–1 µM
CN(C(=O)[C@H](Cc1cc(F)cc(F)c1)NC(=O)CN1c2ccccc2N(CC(=O)N[C@@H](Cc2cc(F)cc(F)c2)C(=O)N(C)c2ccc3sncc3c2)S1(=O)=O)c1ccc2sncc2c1 |  | MT-2 | luciferase | EC50 |  | NL4-3 | 0.02 µM
Cc1ccc(CNC(=O)c2nc3n(c(=O)c2O)CCN(C2CC2)CC3N(C)C(=O)C(=O)N(C)C)cc1Cl |  | MT-4 | p24 | EC95 |  |  | <1 µM
C=CCN(C(=O)[C@H](Cc1cc(F)cc(F)c1)NC(=O)c1ccccc1C(=O)N[C@@H](Cc1cc(F)cc(F)c1)C(=O)N(CC=C)c1ccc(OC)cc1)c1ccc(OC)cc1 |  | MT-2 | luciferase | EC50 |  | NL4-3 | 1.79 µM
Cc1cc(/C=C/C#N)cc(C)c1Oc1nc(NC2CCN(Cc3ccncc3)CC2)nc2ccsc12 |  | MT-4 | MTT | EC50 | NNRTI-resistant (RT Y188L) | IIIB | 0.0322 µM
Cc1cccc(C(=O)NC(C)(C)CNC[C@H](O)[C@@]23CC[C@]4(C)[C@H](CC[C@@H]5[C@@]6(C)CC[C@H](OC(=O)[C@H]7C[C@@H](C(=O)O)C7(C)C)C(C)(C)[C@@H]6CC[C@]54C)C2=C(C(C)C)C(=O)C3)n1 |  | MT-2 | p24 / ELISA | EC50 |  | 92HT599 | <1 µM
CN(C(=O)[C@H](Cc1cc(F)cc(F)c1)NC(=O)N[C@@H](Cc1cc(F)cc(F)c1)C(=O)N(C)c1ccc2scnc2c1)c1ccc2scnc2c1 |  | MT-2 | luciferase | EC50 |  | NL4-3 | 0.52 µM
COc1ccnc2[nH]cc(C(=O)C(=O)N3CCN(C(=O)c4ccccc4)C[C@H]3C)c12 |  | TZM-bl | luciferase | EC99 |  | PVO | 0.42 µM
COc1cc(Cl)ccc1C(=O)NCC[C@@]12CC[C@]3(C)[C@H](CC[C@@H]4[C@@]5(C)CC[C@H](OC(=O)[C@H]6C[C@@H](C(=O)O)C6(C)C)C(C)(C)[C@@H]5CC[C@]43C)C1=C(C(C)C)C(=O)C2 |  | MT-2 | p24 / ELISA | EC50 |  | 92HT599 | <1 µM
CC(C)C1=C2[C@H]3CC[C@@H]4[C@@]5(C)CC[C@H](OC(=O)CC(C)(C)C(=O)O)C(C)(C)[C@@H]5CC[C@@]4(C)[C@]3(C)CC[C@@]2(NC(=O)N2CCOCC2)CC1=O | 30% human serum | MT-2 | RT activity | EC50 |  | IIIB | <0.199 µM
O=C(NCc1ccc(F)cc1)c1nc2n(c(=O)c1O)CCN(C(=O)C(F)(F)F)C2 |  | MT-4 | p24 | EC95 |  |  | <50 µM
Cc1nc2ccc(Cl)cc2c(-c2cccc3ccccc23)c1C(OC(C)C)C(=O)O |  | C8166 | luciferase / reporter gene | EC50 |  |  | <20 µM
Cc1cc(/C=C/C#N)cc(C)c1Oc1nc(NC2CCN(Cc3ccccc3F)CC2)nc2ccsc12 |  | MT-4 | MTT | EC50 | NNRTI-resistant (RT Y181C) | IIIB | 0.0298 µM
CC(C)=CCOc1cc(NC(=S)c2ccoc2C)ccc1Cl |  | CEM + CEM-SS | p24 | EC50 | RT-D67N K70R T215Y K219Q | 4xAZT(RT-D67N K70R T215Y K219Q) | 0.006 µM
CC(C)OC(=S)Nc1ccc(Cl)c(C(=O)OC2CC2)c1 |  | CEM | syncytia | EC50 | RT-Y181C |  | 2.549 µM
Cc1cc(/C=C/C#N)cc(C)c1Oc1nc(NC2CCN(Cc3ccccc3Cl)CC2)nc2ccsc12 |  | MT-4 | MTT | EC50 | NNRTI-resistant (RT Y188L) | IIIB | 0.207 µM
CC(C)OC(=O)N[C@@]12CC[C@]3(C)[C@H](CC[C@@H]4[C@@]5(C)CC[C@H](OC(=O)CC(C)(C)C(=O)O)C(C)(C)[C@@H]5CC[C@]43C)C1=C(C(C)C)C(=O)C2 | 30% human serum | MT-2 | RT activity | EC50 |  | IIIB | <0.199 µM
COc1ccc(NC(=S)OC(C)C)cc1CC(=O)OC(C)C |  | CEM | syncytia | EC50 | RT-E138K |  | 0.184 µM
Cc1nc2ccc(Cl)cc2c(-c2cccs2)c1C(OC(C)C)C(=O)O |  | C8166 | luciferase / reporter gene | EC50 |  |  | <20 µM
CC(C)C1=C2[C@H]3CC[C@@H]4[C@@]5(C)CC[C@H](OC(=O)CC(C)(C)C(=O)O)C(C)(C)[C@@H]5CC[C@@]4(C)[C@]3(C)CC[C@@]2(NC(=O)c2ccnn2C)CC1=O | 30% human serum | MT-2 | RT activity | EC50 |  | IIIB | <0.199 µM
CCCc1cc(=O)oc2c3c(c4c(c12)OC(C)(C)CC4)O[C@@H](C)[C@H](C)[C@@H]3O |  | CEM + CEM-SS | cytopathic effect / XTT | EC50 | RT-V106I | NL4-3 | 0.8 µM
Cc1cc(C#N)cc(C)c1Oc1nc(NC2CCC(NCc3ccc([N+](=O)[O-])cc3)CC2)nc2ccsc12 |  | MT-4 | MTT | EC50 | NNRTI-resistant (RT Y188L) | IIIB | 11.1 µM
C[C@H](Cn1cnc2c(N)ncnc21)OCP(=O)(O)O |  | MT-2 | recombinant virus assay | EC50 | M41L/D67N/K70R/Y181C/G190A/L210W/T215Y/K219E | Clinical isolate | 0.0148 µM
COc1cc(-c2ccc(N=Nc3ccc4c(S(=O)(=O)O)cc(S(=O)(=O)O)c(N)c4c3O)c(OC)c2)ccc1N=Nc1ccc2c(S(=O)(=O)O)cc(S(=O)(=O)O)c(N)c2c1O |  | CEM + CEM-SS | RT activity | EC50 |  | TP1 | 0.6 µM
CC(C)C1=C2C3CCC4[C@@]5(C)CC[C@H](OC(=O)CC(C)(C)C(=O)O)C(C)(C)C5CC[C@@]4(C)[C@]3(C)CC[C@@]2(NC(=O)OC[C@@H]2CCCN2C)CC1=O | 30% human serum | MT-2 | RT activity | EC50 |  | IIIB | <0.199 µM
COc1ccc(N(C)C(=O)[C@H](Cc2cc(F)cc(F)c2)NC(=O)Cc2cccc(CC(=O)N[C@@H](Cc3cc(F)cc(F)c3)C(=O)N(C)c3ccc(OC)cc3)c2)cc1 |  | MT-2 | luciferase | EC50 |  | NL4-3 | 0.48 µM
Cc1cc(CNC(=O)c2nc3n(c(=O)c2O)CCN(C(C)C)CC3N(C)C(=O)C(=O)N(C)C)ccc1F |  | MT-4 | p24 | EC50 |  |  | <1 µM
C=CCOC(=O)c1cc(NC(=S)OC(C)C)ccc1Cl |  | CEM | syncytia | EC50 |  | IIIB | 0.127 µM
CNC1CCN(C(=O)N[C@@]23CC[C@]4(C)C(CCC5[C@@]6(C)CC[C@H](OC(=O)CC(C)(C)C(=O)O)C(C)(C)C6CC[C@]54C)C2=C(C(C)C)C(=O)C3)CC1 | 30% human serum | MT-2 | RT activity | EC50 |  | IIIB | 0.2–0.999 µM
CC(C)C1=C2[C@H]3CC[C@@H]4[C@@]5(C)CC[C@H](OC(=O)[C@H]6C[C@@H](C(=O)O)C6(C)C)C(C)(C)[C@@H]5CC[C@@]4(C)[C@]3(C)CC[C@@]2([C@@H](O)CNC(=O)C(C)(C)NC(=O)c2ccc(Cl)cc2OCCN2CCCCC2)CC1=O |  | MT-2 | p24 / ELISA | EC50 |  | 92HT599 | <1 µM
CC(C)[C@H](NC(=O)OCc1ccccn1)C(=O)N[C@@H](Cc1ccccc1)[C@@H](O)C[C@H](Cc1ccccc1)NC(=O)OCc1cccnc1 |  | MT-4 | p24 | EC50 | PR-M46I V82T | NL4-3 | <1.5 µM
COc1ccc(N(C)C(=O)[C@H](Cc2ccccc2)NC(=O)CS(=O)(=O)N[C@@H](Cc2ccccc2)C(=O)N(C)c2ccc(OC)cc2)cc1 |  | MT-2 | luciferase | EC50 |  | NL4-3 | 1.09 µM
CCOC(C(=O)O)c1c(C)nc2ccc(Cl)cc2c1-c1ccc(CC)cc1 |  | C8166 | luciferase / reporter gene | EC50 |  |  | <20 µM
CC(C)(C)OC(=O)c1cc(NC(=S)OC(C)(C)C)ccc1Cl |  | CEM | syncytia | EC50 | RT-E138K |  | 1.89 µM
Cc1nc2cc(N(C)C(=O)[C@H](Cc3cc(F)cc(F)c3)NC(=O)NS(=O)(=O)N[C@@H](Cc3cc(F)cc(F)c3)C(=O)N(C)c3ccc4sc(C)nc4c3F)ccc2s1 |  | MT-2 | luciferase | EC50 |  | NL4-3 | 0.86 µM
COCCOC(=S)Nc1ccc(Cl)c(C(=O)OC(C)C)c1 |  | CEM | syncytia | EC50 | RT-L100I |  | 18.08 µM
CC(C)CN(C[C@@H](O)[C@H](Cc1ccccc1)NC(=O)O[C@H]1CO[C@H]2OCC[C@H]21)S(=O)(=O)c1ccc2c(c1)OCO2 |  | PHA-PBM | p24 | EC50 |  | MDR/G | 0.0034 µM
CCOC(=O)c1ccc(CN2CCC(Nc3nc(Oc4c(C)cc(C#N)cc4C)c4ccsc4n3)CC2)cc1 |  | MT-4 | MTT | EC50 | NNRTI-resistant (RT L100I) | IIIB | 1.44 µM